In US20260062466A1 (WASHINGTON UNIVERSITY, published 2026):

B1: 516.C08 (antibody, V domains shown)
VH: QITLKESGPTLVKPTQTLTLTCTFSGFSLSTSEVGVGWIRQPPGKALEWLALIYWDDDKRYSPSLKSRLTITKDTSKNQVVLTMTNMDPVDTATYYCAHIKQDCSSTSCYPVTFDYWGQGTLVTVSS
VL: DIVMTQSPDSLAVSLGERATINCKSSQSVLDRSNNKKYLAWYQQKSGQPPKLLIYWASTRESGVPDRFSGSGSGTDFTLTISSLQAEDVAVYYCQQYYSTPWTFGQGTKVEIK
B2: 520.D05 (antibody, V domains shown)
VH: QVQLQQWGAGLLKPSETLSLTCAVYGGSFSGYILSWIRQPPGKGLEWIGEINHRGSTSYNPSLKSRVTISLDTSKNHFSLKLSSVTAADTAVYYCAKSPYMDVWGKGTTVTVSS
VL: EIVLTQSPGTLSLSPGERATLSCRASQSVSSSYFAWYQQKPGQAPRLLIYGASSRATGIPDRFSGGGSGTDFTLTISRLEPEDFAVYYCQQYVSSPYTFGQGTKLEIK
B3: 520.F04 (antibody, V domains shown)
VH: QVQLVESGGGVVQPGRSLRLSCAASGFTFSSYGMHWVRQAPGKGLEWVAVISYDGSNDYYADSVKGRFTISRDNSKNTLYLQMNSLRAEDTAVYYCAKCVWFGELSPFDYWGQGTLVTVSS
VL: DIQMTQSPSSLSASVGDRVTITCRASQGISNYFAWYQQKPGKVPKLLIYAASTLQSGVPSRFSGSGSGTDFTLTISSLQPEDVATYYCQKYNSAPGITFGPGTKVDIK
B4: 516.A10 (antibody, V domains shown)
VH: QVQMVESGGGVVQPGRSLRLSCAASGFTFSSYPIHWVRQVPGKGLEWVAVISYDGSNKYYADSVKGRFTISRDNSKNTLYLQMNSLRPEDTAVYFCARGRGDFELNSFDYWGQGTLVTVSS
VL: EIVLTQSPGTLSLSPGERATLSCRASQSVSSSYLGWYQQKLGQAPRLLIYGASSRATGIPDRFSGSGSGTDFTLTISRLEPEDFAVYYCQQYGSTPFTFGPGTKVDIK
B5: 506.A05 (antibody, V domains shown)
VH: QVQLVESGGGVVQPGRSLRLSCAASGFTFSSYGMHWVRQAPGKGLEWLAVISYDGSNKYYADSVKGRFTISRDNSKTTLFLQMNSLRAEDTAVYYCAKDIQRRLIDYWGQGTLVTVSS
VL: DIQMTQSPSSLSASVGDRVTITCQASQDISNFLNWYQQKPRKAPKLLIFDASNLETGVPSRFSGSGSGTDFTFTISSLQPEDIATYYCQQYDNLPLTFGGGTKVEIK

What was measured:
Assay in all cases: cell-based or functional assay
[1] = biological target: CHIKV-LR 2006 (virus) (Chikungunya virus strain LR 2006)
[2] = biological target: CHIKV-37997 (virus) (Chikungunya virus strain 37997, UniProt Q5XXP3 326-748; Q5XXP3 810-1248)
[3] = biological target: ONNV (O'nyong'nyong virus, MP30) envelope glycoproteins (O'nyong'nyong virus strain MP30)

Binder | FRNT neutralisation, LR 2006 EC50 [1] [ng/mL] | FRNT neutralisation, 37997 EC50 [2] [ng/mL] | FRNT neutralisation of ONNV, EC50 [3] [ng/mL]
B1 | 75 | 30 | –
B2 | 42 | 3 | < 50
B3 | 72 | 202 | –
B4 | – | – | < 50
B5 | 236 | 1 | –
